Reference: ChEMBL document CHEMBL5247624, “N-sulfonylpiperidinedispiro-1,2,4,5-tetraoxanes exhibit potent in vitro antiplasmodial activity and in vivo efficacy in mice infected with P. berghei ANKA” (Eur J Med Chem, 2022)

Tested on: Plasmodium falciparum
Assay: Antiplasmodial activity against erythrocytic stage of chloroquine-sensitive Plasmodium falciparum 3D7 assessed as inhibition of parasite growth incubated for 3 days by HRP2-ELISA assay

For C1CCC2(CC1)OOC1(CCCCC1)OO2, the IC50 was 21.9 nM.
